From the supplement of paper PMC9931576
Substitutions are numbered along the chain they refer to. Human monoclonal antibodies against the spike receptor-binding domain (heavy:light variable regions). IC50 against pseudoviruses bearing the spike of naturally observed variants; lower = stronger; >10 µg/ml means not reached at the top dose. No active / inactive call. The stated detection limit is 0.0005 µg/ml; values near or below 0.001 µg/ml lie at the floor of the assay.

B1: BD56-1766 (protein)
chain 1: EVQLVQSGGGLVQPGGSLRLSCAASGFTFSKYDMQWVRQGPGKGLEWVSTIGTAGDTYYVDSVKGRFTISRENAKNSLYLQMNSLRVGDTAVYYCARGSSGWTSYPDYWGQGTLVTVSS
chain 2: DIQMTQSPSSLSASVGDRVTITCRASQSINRYLNWYQQKPGKAPKLLIYAVSSLQSGVPSRFSGSGSGTDFTLTISSLQYEDFATYYCQQSYSNPMHTFGQGTKLEIK
B2: BD56-1767 (protein)
chain 1: QVLLVESGGGVVQPGRSLRLSCAASGFTFSMYGMHWVRQAPGKGLEWVTVISNDGSFKYYGDSVKGRFTISRDNSKNTLYLHMNSLRAEDTAVYYCAKDADYNEFLLIDHWGQGTLVTVSS
chain 2: DIQMTQSPSSLSASVGDRVTITCRASQTISTYLNWYQQRPGKAPKLLIYAASTLQSGVPSRFSGSGSGTDFTLTISSLQPEDFATYYCQQSYSTPPITFGQGTRLEIK
B3: COV2-2514 (protein)
chain 1: EVQLVESGGGVVRPGGSLRLSCAASGFIFDDYDMTWVRQAPGKGLEWVSGINWNGGSTGYADSVKGRFTISRDNAKNSLYLQMNSLRAEDTALYHCAVIMSPIPRYSGYDWAGDAFDIWGQGTMVTVSS
chain 2: SSELTQDPAVSVALGQTVRITCQGDSLRSYYASWYQQKPGQVPILVIYDKNNRPSGIPDRFSGSSSGNTASLTITGAQAEDEADYYCNSRDSSGNAVVFGGGTKLTVL
B4: BD56-1775 (protein)
chain 1: QVQLVQSGVEVKKPGSSVKVSCKASGGTFSSYAISWVRQAPGQGLEWIGRIIPIFGIVDYAQNFEGRVTITADEATGTTYMDLGSLRSEDTAVYHCARSFVGPKGKEDYYFDYWGQGTLVTVSS
chain 2: EIVLTQSPATLSLSPGERATLSCRASQSIGSHLAWYQQKPGQAPSLLIYDASKRATGTPARFSGSGSGTDFTLTISSLEPADFAVYYCQQRSVRALAFGGGTKVEIK
B5: BD56-1777 (protein)
chain 1: QVQLVQSGAEVKKPGSSVKVSCKASEDTFNSYTINWVRQAPGQPLEWMGRIIPLLGITNYAQKFQVRVTITADKSTSTAYMELSSLRSEDTAVYFCARARAPFYGSGYNGALNYFDPWGQGTLVTVSS
chain 2: EIVLTQSPGTLSLSPGERATLSCRASQSVMSIYLAWYQQKPGQAPRLLIYGASNRAAGIPDRFSGSGSVTDFTLTISRLEPEDFAVYYCQQYHSSPFTFGPGTKLEIK
B6: BD56-1779 (protein)
chain 1: EVQLVESGGGLVQPGRSLRLSCAASGFVFDDYAIHWVRQAPGKGLEWVSGVTWNSGTIGYADSVKGRFIISRDNAKNTLYLQMNRLRAEDTALYYCAKDQSGDGERAFDYWGQGTLVTVSS
chain 2: DIQMTQSPSSLSASVGDRVTITCRASQSVRSYLNWYQQKPGKAPNLLIFAASSLQSGVPSRFIGSGSGTDFTLTISSLQPEDFASYYCQQSYNTPPTFGQGTKVEIK
B7: BD56-1780 (protein)
chain 1: EVQLVESGGGLVQPGGSLRVSCAASGFTFSSFEMNWVRQAPGKGLEWVSYISRSGSSTNYVDSVKGRFTISRDNAKNLLYLQMNSLRAEDTAVYYCARAKYGLGSATSDYWGQGTLVTVSS
chain 2: DIQMTQSPSSLSASVGDRVTITCRASQSLNNFLNWYQQKPGKAPKLLIYATSSLQSGVPSRFSGSGSGTDFALTISSLQPEDFATYYCQQSFSVPVTFGQGTKLDIK
B8: BD56-1782 (protein)
chain 1: EVQLVQSGAEVKKPGSSVKVSCKASGGTFSSYSVSWVRQAPGQGPEWMGSVIPILGIANYAQKFQGRVTISADKSTSTAYMDLSSLRSEDTAVYYCATLGYYDSSGPLRTEYLQEWGQGTLVTVSS
chain 2: QSVLTQPPSVSGAPGQRVTISCTGSNSNIGAGYDVHWYQQLPGAAPKILIYGNNNRPSGVPDRFSGSKSDTSASLAITGLQAEDEADYYCQSYDSSLSGSVFGGGTKLTVL
B9: BD56-1798 (protein)
chain 1: QVQLQQWGAGLLKPSETLSLTCAVYGGSFSVYYWTWIRQTPGKGLEWIGEVNHSGSTNYNPSLKSRVTMSVDTSKKQFSLKLSSVTAADTAVYYCARGHWGYFDWSLGGQGTLVTVSS
chain 2: DIQMTQSPSTLSASVGDRVTITCRASQSISDWLAWYQQKPGKAPKLLIFEASTLESGVPSTFSGSGSGTEFTLTISSLQPDDFAIYYCQQYSSYPYTFGQGTKLEIK
B10: BD56-1804 (protein)
chain 1: EVQLVESGGGLVQPGGSLRLSCAASGFTFRSYDMHWVRQGAGKGLEWVSTIGTGGDTYYSDSVKGRFSISRENAKNSVYLQMSSLRVGDTAVYYCARVNYDSSGYKWHLDYWGQGTPVSVSS
chain 2: B1 chain 2 with N30S, A43G, K45N, A50D, V51A, S56R, Y80P, S93T, M96L, H97Y
B11: BD56-1809 (protein)
chain 1: QVQLVQSGAEVKKPGSSVKVSCKAAGGTFGHYAIGWVRQAPGQGLEWMGRIIPMFDIPNYAQRFQGRLTIAADRSTSTAYMELSSLTSDDTAVYYCARDKSGGFFGSGTYYDPTIGADFWGQGTLVTVSS
chain 2: QSVLTQPPSASGTPGQRVTISCSGSSSNIGSNTVNWYQQLPGTAPKLLIYSDDQRPSGVPDRFSGSKSGTSASLAISGLQSDDEADYYCAAWDDSLNGRLFGGGTKLTVL
B12: DH1041 (protein)
chain 1: EVQLVESGGGLVQPGGSLRLSCAASGVTFSSYWMSWVRQAPGKGLEWVANIRQDGSEKYSVDSVKGRFTISRDNAKNSLYLQMNSLRAEDTAVYYCARARRADNSGYYGFHFDCWGQGTLVTVSS
chain 2: B8 chain 2 with N26S, A44T, I48L, G66D, D70G, G79R, S100W

The binders below were run against SARS-CoV-2 Omicron BA.1 spike pseudovirus (assay: pseudovirus neutralization IC50; higher = weaker neutralization).
Protocol: (§1)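 Single-round VSV luciferase pseudovirus mixed with antibody dilutions for 1 h and put on Huh-7 cells for about a day; IC50 from the dose curve.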

Binder | pseudovirus neutralization IC50 [µg/mL]
B1 | > 10
B2 | 2.83
B3 | 0.322
B4 | 0.00129
B5 | 0.0112
B6 | > 10
B7 | 0.0187
B8 | 0.298
B9 | 0.039
B10 | > 10
B11 | 0.0176
B12 | > 10

What follows are binders tested against SARS-CoV-2 Omicron BA.2 spike pseudovirus in the same assay as above.
Protocol: as §1

Binder | pseudovirus neutralization IC50 [µg/mL]
B1 | > 10
B2 | 2.48
B3 | > 10
B4 | 0.00351
B5 | 0.0126
B6 | > 10
B7 | 0.0225
B8 | 0.442
B9 | 0.058
B10 | > 10
B11 | 0.0105
B12 | > 10

The binders below were run against SARS-CoV-2 Omicron BA.2.75 spike pseudovirus in the same assay as above.
Protocol: as §1

Binder | pseudovirus neutralization IC50 [µg/mL]
B1 | > 10
B2 | 2.11
B3 | > 10
B4 | 0.00217
B5 | 0.00365
B6 | > 10
B7 | 0.0104
B8 | 0.319
B9 | 0.037
B10 | > 10
B11 | 0.00109
B12 | > 10

Each binder was assayed against SARS-CoV-2 Omicron BA.5 spike pseudovirus in the same assay as above.
Protocol: as §1

Binder | pseudovirus neutralization IC50 [µg/mL]
B1 | > 10
B2 | 3.43
B3 | > 10
B4 | > 10
B5 | > 10
B6 | > 10
B7 | > 10
B8 | > 10
B9 | > 10
B10 | > 10
B11 | > 10
B12 | > 10

These binders were tested against SARS-CoV-2 Omicron BQ.1.1 spike pseudovirus in the same assay as above.
Protocol: as §1

Binder | pseudovirus neutralization IC50 [µg/mL]
B1 | > 10
B2 | 1.78
B3 | > 10
B4 | > 10
B5 | > 10
B6 | > 10
B7 | > 10
B8 | > 10
B9 | > 10
B10 | > 10
B11 | > 10
B12 | > 10

What follows are binders tested against SARS-CoV-2 Omicron XBB spike pseudovirus in the same assay as above.
Protocol: as §1

Binder | pseudovirus neutralization IC50 [µg/mL]
B1 | > 10
B2 | 5.37
B3 | > 10
B4 | > 10
B5 | > 10
B6 | > 10
B7 | > 10
B8 | > 10
B9 | > 10
B10 | > 10
B11 | > 10
B12 | > 10

These binders were tested against SARS-CoV-2 early D614G spike pseudovirus in the same assay as above.
Protocol: as §1

Binder | pseudovirus neutralization IC50 [µg/mL]
B1 | > 10
B2 | 0.511
B3 | 0.00458
B4 | 0.000742
B5 | 0.00317
B6 | 7.82
B7 | 0.00293
B8 | 0.885
B9 | 0.045
B10 | 2.72
B11 | 0.00505
B12 | 0.0086
